Data published in publication PMC8158775, “Structure–Activity Relationship Assessment of Sophorolipid Ester Derivatives against Model Bacteria Strains” (Molecules, 2021).

What follows are molecules tested on M1 activated macrophages (AMOs) from Raw 254.7 murine macrophages (assay: In vitro cytotoxicity study). Conditions: TI = EC50/MIC B. cereus.
Type: cell-based
Source text: A potential antimicrobial candidate must selectively kill pathogen cells without harming the host mammalian cells. To test the ability of SLs to effectively discriminate between bacteria and mammalian cells, a cytotoxicity assay was previously reported by our team. […] The therapeutic index (TI) is a parameter commonly used to determine potential drug selectivity. […] Generally, membrane-active agents are not considered for systemic administration directly, because of relatively low selectivity. Thus, designing suitable formulations and selecting suitable dose ranges are important in drug development.
`CCCCOC(=O)CCCCCCC/C=C\CCCCCCC(C)OC1OC(CO)C(O)C(O)C1OC1OC(CO)C(O)C(O)C1O` (stereo not drawn) [SL-butyl ester] was tested, and the “TI relative to that of lactonic SL” value was 16 ×.

Same assay, conditions: TI = EC50 macrophage/MIC B. cereus; EC50 = concentration causing 50% killing of macrophage after 16 h
For `CC(=O)OCC1OC2OC(C)CCCCCC/C=C\CCCCCCCC(=O)OC3C(COC(C)=O)OC(OC2C(O)C1O)C(O)C3O` (stereo not drawn) [Lactonic SL, reference compound], the “Therapeutic index (TI)” value was 2. `CCCCOC(=O)CCCCCCC/C=C\CCCCCCC(C)OC1OC(CO)C(O)C(O)C1OC1OC(CO)C(O)C(O)C1O` (stereo not drawn) [SL-butyl ester] was tested, and the “Therapeutic index (TI)” value was 33. With `CCOC(=O)CCCCCCC/C=C\CCCCCCC(C)OC1OC(CO)C(O)C(O)C1OC1OC(CO)C(O)C(O)C1O` (stereo not drawn) [SL-ethyl ester] the “Therapeutic index (TI)” value was 6. For `CCCCCOC(=O)CCCCCCC/C=C\CCCCCCC(C)OC1OC(CO)C(O)C(O)C1OC1OC(CO)C(O)C(O)C1O` (stereo not drawn) [SL-pentyl ester], the “Therapeutic index (TI)” value was 17. With `CCCOC(=O)CCCCCCC/C=C\CCCCCCC(C)OC1OC(CO)C(O)C(O)C1OC1OC(CO)C(O)C(O)C1O` (stereo not drawn) [SL-propyl ester] the “Therapeutic index (TI)” value was 16.
